Measured values: patent publication US20030220338A1, “Fungal efflux pump inhibitors” (priority 2001, published 2003)

How the values were obtained:
[1] = tested on: Candida albicans YEM15 (over-expressing the CDR1 and CDR2 pumps); assay: Checkerboard / broth microdilution assay, potentiation of fluconazole vs. C. albicans; conditions: for MIC: Candida albicans, 48 h; for MPC8 = concentration of efflux pump inhibitor necessary to reduce the fluconazole MIC 8-fold: in combination with fluconazole, strain YEM15
[2] = tested on: C. glabrata YEM19 (over-expressing the CgCDR1 and CgCDR2 pumps); assay: Checkerboard / broth microdilution assay, potentiation of fluconazole vs. C. glabrata; conditions: for MIC: Nakaseomyces glabratus, 48 h; for MPC8: in combination with fluconazole, strain YEM19

Structure (SMILES)	MIC [1]	MPC8 = concentration of efflux pump inhibitor necessary to reduce the fluconazole MIC 8-fold [1]	MIC [2]	MPC8 [2]
COc1ccc(N(C(=O)Nc2ccc(F)cc2)C(C)c2nc3cc(Cl)ccc3c(=O)n2N2CCN(C)CC2)c(OC)c1 (centres unmarked) [Compound 77]	> 32 µg/mL	0.125 µg/mL	> 32 µg/mL	0.5 µg/mL
COc1ccc(N(C(=O)Nc2ccc(F)cc2)C(C)c2nc3ccccc3c(=O)n2N2CCN(C(=O)N3CCC(N)CC3)CC2)c(OC)c1 (centres unmarked) [Compound 211]	> 32 µg/mL	32 µg/mL	> 32 µg/mL	8 µg/mL
COc1ccc(N(C(=O)Nc2ccc(F)cc2)C(C)c2nc3ccccc3c(=O)n2N2CCN(C(=O)CN3CCOCC3)CC2)c(OC)c1 (centres unmarked) [Compound 137]	> 32 µg/mL	1 µg/mL	> 32 µg/mL	0.5 µg/mL
COc1ccc(N(C(=O)Nc2ccc(F)cc2)[C@H](C)c2nc3ccccc3c(=O)n2N2CCN(C(=O)[C@@H]3CCCN3)CC2)c(OC)c1 [Compound 184]	–	–	> 32 µg/mL	32 µg/mL
COc1ccc(N(C(=O)Nc2ccc(F)cc2)C(C)c2nc3ccc(F)cc3c(=O)n2N2CCN(C)CC2)c(OC)c1 (centres unmarked) [Compound 67]	> 32 µg/mL	1 µg/mL	> 32 µg/mL	2 µg/mL
CC(c1nc2ccccc2c(=O)n1N1CCN(C(=O)[C@@H]2CCCN2)CC1)N(C(=O)Nc1ccc(F)cc1)c1cccc(-n2nccn2)c1 (some centres unmarked) [Compound 208]	–	–	> 32 µg/mL	32 µg/mL
COc1ccc(N(C(=O)Nc2cccc(Cl)c2)C(C)c2nc3ccccc3c(=O)n2N2CCN(C(N)=O)CC2)c(OC)c1 (centres unmarked) [Compound 174]	> 32 µg/mL	0.5 µg/mL	> 32 µg/mL	8 µg/mL
COc1ccc(N(C(=O)Nc2ccc(F)cc2)C(C)c2nc3ccccc3c(=O)n2N2CCN(C(=O)[C@H](CO)NC(=O)OC(C)(C)C)CC2)c(OC)c1 (some centres unmarked) [Compound 165]	> 32 µg/mL	4 µg/mL	> 32 µg/mL	2 µg/mL
COc1ccc(N(C(=O)Nc2ccccc2)C(C)c2nc3ccccc3c(=O)n2N2CCN(C(=O)OC(C)(C)C)CC2)c(OC)c1 (centres unmarked) [Compound 88]	> 32 µg/mL	1 µg/mL	> 32 µg/mL	0.5 µg/mL
COc1ccc(N(C(=O)Nc2ccc(F)cc2)C(C)c2nc3ccccc3c(=O)n2N2CCN(C(=O)[C@H]3CCCN3)CC2)c(OC)c1 (some centres unmarked) [Compound 159]	–	–	> 32 µg/mL	2 µg/mL
COc1cc(N(C(=O)Nc2ccc(F)cc2)C(C)c2nc3ccccc3c(=O)n2N2CCN(C)CC2)cc(OC)c1OC (centres unmarked) [Compound 61]	> 32 µg/mL	8 µg/mL	–	–
COc1ccc(N(C(=O)Nc2ccc(F)cc2)C(C)c2nc3ccccc3c(=O)n2N2CCN(C(=O)CN3CCNCC3)CC2)c(OC)c1 (centres unmarked) [Compound 140]	–	–	> 32 µg/mL	2 µg/mL
COc1ccc(N(C(=O)Nc2ccc(C(F)(F)F)cc2)C(C)c2nc3ccc(C)cc3c(=O)n2N2CCN(C)CC2)c(OC)c1 (centres unmarked) [Compound 71]	16 µg/mL	2 µg/mL	> 32 µg/mL	4 µg/mL
COc1ccc(N(C(=O)Nc2ccc(F)cc2)C(C)c2nc3ccccc3c(=O)n2N2CCN(C(=O)OCCSc3ncc[nH]3)CC2)c(OC)c1 (centres unmarked) [Compound 106]	> 32 µg/mL	2 µg/mL	> 32 µg/mL	0.25 µg/mL
COc1ccc(N(C(=O)Nc2ccc(F)cc2)C(C)c2nc3ccccc3c(=O)n2N2CCN(C(=O)N3CCC(N)C3)CC2)c(OC)c1 (centres unmarked) [Compound 210]	> 32 µg/mL	8 µg/mL	> 32 µg/mL	4 µg/mL
COc1ccc(N(C(=O)Nc2ccc(C)cc2)C(C)c2nc3cc(Cl)ccc3c(=O)n2N2CCN(C)CC2)c(OC)c1 (centres unmarked) [Compound 78]	32 µg/mL	0.25 µg/mL	32 µg/mL	0.25 µg/mL
COc1ccc(N(C(=O)Nc2ccc(F)cc2)C(C)c2nc3ccccc3c(=O)n2N2CCN(C(=O)CN3CCOCC3)CC2)c(OC)n1 (centres unmarked) [Compound 139]	> 32 µg/mL	2 µg/mL	> 32 µg/mL	1 µg/mL
COc1cccc(N(C(=O)Nc2ccc(F)cc2)C(C)c2nc3ccccc3c(=O)n2N2CCN(C)CC2)c1 (centres unmarked) [Compound 60]	> 32 µg/mL	16 µg/mL	–	–
COc1ccc(N(C(=O)Nc2ccc(F)cc2)C(C)c2nc3ccccc3c(=O)n2N2CCNCC2)c(OC)c1 (centres unmarked) [Compound 46]	–	–	> 32 µg/mL	32 µg/mL
COc1ccc(N(C(=O)Nc2ccc(F)cc2)C(C)c2nc3ccccc3c(=O)n2N2CCN(C(=O)NCCN3CCNCC3)CC2)c(OC)c1 (centres unmarked) [Compound 172]	–	–	> 32 µg/mL	4 µg/mL
CCOC(=O)N1CCN(n2c(C(C)N(C(=O)Nc3ccc(F)cc3)c3ccc(OC)cc3OC)nc3c(OC)cccc3c2=O)CC1 (centres unmarked) [Compound 95]	> 32 µg/mL	32 µg/mL	–	–
COc1ccc(N(C(=O)Nc2ccc(F)cc2)C(C)c2nc3ccccc3c(=O)n2N2CCN(C(=O)[C@@H](N)CO)CC2)c(OC)c1 (some centres unmarked) [Compound 188]	–	–	> 32 µg/mL	8 µg/mL

Structure (SMILES)	MIC [1]	MPC8 = concentration of efflux pump inhibitor necessary to reduce the fluconazole MIC 8-fold [1]	MIC [2]	MPC8 [2]
COc1ccc(N(C(=O)Nc2ccc(F)cc2)C(C)c2nc3ccccc3c(=O)n2N2CCN(C(=O)CN3CCN(C)CC3)CC2)c(OC)c1 (centres unmarked) [Compound 138]	–	–	> 32 µg/mL	1 µg/mL
COc1ccc(N(C(=O)Nc2ccc(C)cn2)C(C)c2nc3ccccc3c(=O)n2N2CCN(C)CC2)c(OC)c1 (centres unmarked) [Compound 59]	–	–	> 32 µg/mL	16 µg/mL
COc1ccc(N(C(=O)Nc2ccc(F)cc2)C(C)c2nc3ccccc3c(=O)n2N2CCN(C(=O)C3CCNCC3)CC2)c(OC)c1 (centres unmarked) [Compound 197]	–	–	> 32 µg/mL	4 µg/mL
COc1ccc(N(C(=O)Nc2ccc(F)cc2)C(C)c2nc3ccccc3c(=O)n2N2CCN(CCCC(=O)NS(=O)(=O)C(F)(F)F)CC2)c(OC)c1 (centres unmarked) [Compound 182]	–	–	> 32 µg/mL	32 µg/mL
COc1ccc(N(C(=O)Nc2ccc(F)cc2)C(C)c2nc3ccccc3c(=O)n2N2CCN(C(=O)[C@H](C)N)CC2)c(OC)c1 (some centres unmarked) [Compound 187]	–	–	> 32 µg/mL	4 µg/mL
COc1ccc(N(C(=O)Nc2ccc(F)cc2)C(C)c2nc3ccccc3c(=O)n2N2CCN(C(=O)CN3C(=O)CCC3=O)CC2)c(OC)c1 (centres unmarked) [Compound 150]	–	–	> 32 µg/mL	8 µg/mL
CCOC(=O)N1CCN(n2c(C(C)N(C(=O)Nc3ccc(F)cc3)c3ccc(OC)cc3OC)nc3ccc(Cl)cc3c2=O)CC1 (centres unmarked) [Compound 92]	> 32 µg/mL	4 µg/mL	–	–
COc1ccc(N(C(=O)Nc2ccc(F)cc2)[C@@H](C)c2nc3ccccc3c(=O)n2N2CCN(C(=O)[C@@H]3CCCN3)CC2)c(OC)c1 [Compound 183]	–	–	> 32 µg/mL	1 µg/mL
COc1ccc(N(C(=O)Nc2ccc(F)cc2)C(C)c2nc3ccccc3c(=O)n2N2CCN(C(=O)N3CCNCC3)CC2)c(OC)c1 (centres unmarked) [Compound 200]	–	–	> 32 µg/mL	16 µg/mL
COc1ccc(N(C(=O)Nc2ccc(F)cc2)C(C)c2nc3ccccc3c(=O)n2N2CCN(C(=O)NCCN(C)C)CC2)c(OC)c1 (centres unmarked) [Compound 170]	–	–	> 32 µg/mL	1 µg/mL
COc1ccc(N(C(=O)Nc2ccc(F)cc2)C(C)c2nc3ccccc3c(=O)n2N2CCN(C(=O)C[C@@H]3CCCN3)CC2)c(OC)c1 (some centres unmarked) [Compound 190]	–	–	> 32 µg/mL	0.5 µg/mL
COc1ccc(N(C(=O)Nc2ccc(F)cc2)C(C)c2nc3ccccc3c(=O)n2N2CCN(C(=O)NCCN3CCOCC3)CC2)c(OC)c1 (centres unmarked) [Compound 169]	–	–	> 32 µg/mL	1 µg/mL
COc1ccc(N(C(=O)Nc2ccc(F)cc2)C(C)c2nc3ccccc3c(=O)n2N2CCN(C(=O)CCN)CC2)c(OC)c1 (centres unmarked) [Compound 186]	–	–	> 32 µg/mL	8 µg/mL
CNCC(=O)N1CCN(n2c(C(C)N(C(=O)Nc3ccc(F)cc3)c3ccc(OC)cc3OC)nc3ccccc3c2=O)CC1 (centres unmarked) [Compound 189]	–	–	> 32 µg/mL	4 µg/mL
COc1ccc(N(C(=O)Nc2ccc(F)cc2)C(C)c2nc3ccccc3c(=O)n2N2CCN(CCCC(=O)O)CC2)c(OC)c1 (centres unmarked) [Compound 52]	–	–	> 32 µg/mL	32 µg/mL
COc1ccc(N(C(=O)Nc2ccc(F)cc2)C(C)c2nc3ccccc3c(=O)n2N2CCN(C(=O)Cn3cncn3)CC2)c(OC)c1 (centres unmarked) [Compound 149]	–	–	> 32 µg/mL	32 µg/mL
COc1ccc(N(C(=O)Nc2ccc(F)cc2)C(C)c2nc3ccccc3c(=O)n2N2CCN(C(=O)[C@@H]3CCCN3)CC2)c(OC)c1 (some centres unmarked) [Compound 54]	–	–	> 32 µg/mL	4 µg/mL
COc1ccc(N(C(=O)Nc2ccc(F)cc2)C(C)c2nc3ccc(F)cc3c(=O)n2N2CCNCC2)c(OC)c1 (centres unmarked) [Compound 127]	–	–	> 32 µg/mL	8 µg/mL
COc1ccc(N(C(=O)Nc2ccc(F)cc2)C(C)c2nc3ccccc3c(=O)n2N2CCN(C(=O)CN)CC2)c(OC)c1 (centres unmarked) [Compound 185]	–	–	> 32 µg/mL	16 µg/mL
CC(c1nc2ccccc2c(=O)n1N1CCN(C(=O)[C@@H]2CCCN2)CC1)N(C(=O)Nc1ccc(F)cc1)c1ccc(OCC2CC2)cc1OCC1CC1 (some centres unmarked) [Compound 206]	–	–	> 32 µg/mL	0.25 µg/mL
COc1ccc(N(C(=O)Nc2ccc(F)cc2)C(C)c2nc3ccccc3c(=O)n2N2CCN(C(=O)NCCN3CCCC3)CC2)c(OC)c1 (centres unmarked) [Compound 171]	–	–	> 32 µg/mL	1 µg/mL
